# Literature values in publication PMC4594927 (PLoS ONE, 2015).
# Sequences of proteins named here, by UniProt entry; tags and fusion partners are left off. Residues count along the entry.
# UniProt A0A6L8P2U9, 1-487: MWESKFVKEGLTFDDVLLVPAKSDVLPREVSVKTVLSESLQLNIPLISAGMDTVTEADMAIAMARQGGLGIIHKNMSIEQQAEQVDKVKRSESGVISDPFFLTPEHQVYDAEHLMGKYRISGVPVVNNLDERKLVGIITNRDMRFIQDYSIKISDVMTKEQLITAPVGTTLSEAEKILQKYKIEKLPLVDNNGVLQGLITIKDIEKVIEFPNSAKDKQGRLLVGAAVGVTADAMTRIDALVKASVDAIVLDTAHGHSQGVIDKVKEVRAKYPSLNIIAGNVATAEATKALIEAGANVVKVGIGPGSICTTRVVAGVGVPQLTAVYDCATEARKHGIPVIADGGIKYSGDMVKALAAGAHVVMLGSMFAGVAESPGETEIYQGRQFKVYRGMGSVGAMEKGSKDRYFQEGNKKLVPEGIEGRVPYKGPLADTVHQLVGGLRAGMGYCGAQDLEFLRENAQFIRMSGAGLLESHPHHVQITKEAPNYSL
# Molecular target: BaIMPDH (Bacillus anthracis, UniProt A0A6L8P2U9)
# Details: read-out: Ki,app BaIMPDH; cited from earlier work
row,Compound,Ki [nM]
1,CC(=O)c1cccc(C(C)(C)NC(=O)Nc2ccc(Cl)cc2)c1 [P20],160 ± 60
2,CC(=NO)c1cccc(C(C)(C)NC(=O)Nc2ccc(Cl)c(Cl)c2)c1 [P47],95 ± 30
3,CON=C(C)c1cccc(C(C)(C)NC(=O)Nc2ccc(Cl)c(C#N)c2)c1 [P69],15 ± 1
4,CON=C(C)c1cccc(C(C)(C)NC(=O)Nc2ccc(Cl)c(C(F)(F)F)c2)c1 [P83],15 ± 2
